Data taken from patent publication US12485127B2, “Compositions and methods for treatment and prevention of actinic keratosis using copper chlorin” (CHL Industries, LLC, priority 2024, dated 2025).

Experiments:
Format in all cases: cell-based, human papillomavirus
Details in all cases: for SI50: CC50/EC50; for SI90: CC50/EC90
[1] = system: HPV-18 (strain: KC470230.1); test: HPV-18 genome plasmid replication assay in C-33 A cells
Description: (§1) The in vitro testing of the chlorin compounds and the positive control for antiviral cytopathic effect (CPE) was conducted through The National Institute of Allergy and Infectious Diseases (NIAID) NCEA Program. The in vitro testing was done by the method described by Beadle J R, Valiaeva N, Yang G, Yu J H, Broker T R, Aldern K A, et al. Synthesis and Antiviral Evaluation of Octadecyloxyethyl Benzyl 9-[(2-Phosphonomethoxy)ethyl]guanine (ODE-Bn-PMEG), a Potent Inhibitor of Transient HPV DNA Amplification. J Med Chem. 2016; 59(23):10470-8. PubMed PMID: 27933957. This method uses an HPV-11 replicon assay. The replicon (pMP619) is transfected into C-33 A cells grown as monolayers in 384-well plates. At 48 hours post transfection, the enzymatic activity of the destabilized NanoLuc reporter is assessed with NanoGlo reagent. […] The host C-33 A cells are epithelial cells originally isolated from the cervix of a uterine cancer patient. For reasons previously mentioned in this application, in vitro testing of compounds for potential antiviral activity against HPV strains cannot use human keratinocytes as the host cells due to the variable HPV replication activity with this cell line.
(§2) The EC50 (or Effective Concentration 50) is the concentration of the test compound in micromoles that reduces virus replication by 50%. The EC90 (or Effective Concentration 90) is the concentration of the test compound in micromoles that reduces virus replication by 90%. CC50 (or Cytotoxic Concentration 50) is the concentration of the test compound in micromoles that reduces the cell viability of the virus host cell by 50%. The SI50 (or Selectivity Index 50) is a measure of both safety and efficacy or therapeutic index and is calculated by dividing the CC50 by the EC50. The SI90 (Selectivity Index 90) is calculated by dividing the CC50 by the EC90.
(§3) The in vitro test method used to assess activity of copper chlorins according to embodiments herein against HPV-18 and HPV-31 used the same replication and quantification method described previously for Table 1 results but with HPV-18 and HPV-31 genome plasmids. Results of the in vitro testing of three of the same copper chlorins as used in Table 1, as well as the same control, against HPV 18 and HPV 31 are summarized in Table 2 and Table 3 below.

[2] = system: HPV-11 (HE611260.1 strain); test: HPV-11 replicon assay (NanoLuc reporter) in C-33 A cells
Description: as §1
The control compound, PMEG, has a molecular weight of 289.188 g/mol. The molecular weight of the copper chlorin compounds evaluated are (1) 661.5 g/mol for disodium copper isochlorin e4; (2) 710.5 g/mol for trisodium copper chlorin p6; (3) 724.15 g/mol for trisodium copper chlorin e6; and (4) 740 g/mol for trisodium copper rhodin g7. The antiviral test results in Table 1 for each treatment composition and the control are reported in micromoles (uM) for the EC50, EC90, and CC50. The SI 50 and SI 90 are calculated from the EC50, EC90, and CC50 data.
as §2

[3] = system: HPV-31 (strain: HQ53768.1); test: HPV-31 genome plasmid replication assay in C-33 A cells
Description: as §1, §2, §3

Compound | SI50 [1] | SI90 [1] | SI50 [2] | SI90 [2] | SI50 [3] | SI90 [3]
Nc1nc2c(ncn2CCOCP(=O)(O)O)c(=O)[nH]1 [9-[2-(phosphono-methoxy)-ethyl]guanine, reference compound] | >107 | >12 | >164 | 1 | >64 | >14
C=Cc1c(C)c2cc3nc(c(CC(=O)[O-])c4[n-]c(cc5nc(cc1[n-]2)C(C)=C5CC)c(C)c4C(=O)[O-])C(CCC(=O)[O-])C3C.[Cu+2].[Na+].[Na+].[Na+] (centres unmarked) [Trisodium copper chlorin e6] | 38 | 18 | 28 | 3 | 27 | 13
C=Cc1c(C)c2cc3nc(c(C(=O)[O-])c4[n-]c(cc5nc(cc1[n-]2)C(C)=C5CC)c(C)c4C(=O)[O-])C(CCC(=O)[O-])C3C.[Cu+2].[Na+].[Na+].[Na+] (centres unmarked) [Trisodium copper chlorin p6] | – | – | 11 | 2 | – | –
Disodium copper isochlorin e4 | 16 | 8 | 17 | 4 | 206 | 12
Trisodium copper rhodin g7 | 196 | 89 | >33 | >3 | 632 | 140
